Sequence variants of PSTVd loop 6 after infection

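A pool of all variants was put on leaves of three Nicotiana benthamiana plants. Samples came from the inoculated region at 5 days, the leaf margin at 10 and upper systemic leaves at 12.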

Region: loop 6 of PSTVd (intermediate strain), upper and lower strand joined, each 5' to 3', the first 5 letters being the upper strand, closing pairs included. Wild type: UGACCGCGAG. Varied positions (N): UNNNCGNNNG.

Values are reads per thousand in the sample; higher means more abundant, 0 means not found. Each value is the mean of three plants. "Pool" is the share in the plasmid pool used as inoculum, on the same scale. The inoculated region was read from the minus strand, the other sites from the plus strand. Sequences that differ at fixed positions probably stem from PCR or sequencing errors, and defective variants can be carried along by functional ones. Wild type was 20.7 per thousand in the pool and the most common sequence in every sample (inoculated region 195, 198, 203; leaf margin 629, 591, 734; systemic leaves 942, 870, 868). Samples held 36,220 to 57,551 reads, so the smallest values rest on one or two reads.

sequence	pool	inoculated region	leaf margin	systemic leaves
UAAACGCGAG	0.196	0.0833	0.568	0.0322
UAAACGCGGG	0.131	0.108	0.0353	0.00684
UAAACGGUUG	0.118	0.672	0.0400	0
UAAACGUAGG	0.144	0.108	0	0
UAACCGGGGG	0.209	0.0949	0.0169	0
UAACCGUAGG	0.340	0.0834	0.0169	0
UAAGCGAUGG	0.275	0.0902	0.0155	0
UAAGCGCUCG	0.183	0.0774	0	0.00684
UACACGCCCG	0.261	0.0650	0	0
UACACGCUUG	0.209	0.0764	0.0169	0
UACCCGCCCG	0.183	0.0357	0	0
UACCCGGUCG	0.314	0.119	0	0
UACUCGACCG	0.131	0.107	0	0
UAGACGUUUG	0.405	0.0719	0	0
UAGCCGAUAG	0.288	0.0820	0.101	0
UAGCCGCGGG	0.235	0.114	0.0699	0
UAGGCGCGUG	0.183	0.124	0.00920	0
UAGGCGUAGG	0.275	0.0945	0.00773	0
UAGUCGAGCG	0.196	0.114	0.0155	0
UAGUCGCAGG	0.275	0.106	0	0
UAGUCGCGCG	0.235	0.0949	0.00773	0
UAUACGAGAG	0.340	0.119	0.0161	0
UAUACGAGGG	0.340	0.113	0	0
UAUCCGAAAG	0.157	0.0949	0.00920	0
UAUCCGAACG	0.235	0.107	0.00773	0
UAUCCGAUUG	0.340	0.0714	0.00920	0
UCAACGAUAG	0.209	0.191	0.0232	0
UCACCGACAG	0.170	0.0952	0.00773	0
UCACCGGCUG	0.222	0.113	0.0309	0
UCAUCGCUUG	0.170	0.0942	0	0
UCAUCGGAUG	0.235	0.113	0.0184	0
UCAUCGGGGG	0.0784	0.0716	0.00773	0
UCAUCGUAUG	0.183	0.0712	0.137	0
UCCACGAUCG	0.275	0.0663	0.00920	0
UCCACGGUAG	0.275	0.0835	0.00920	0
UCCCCGGCAG	0.288	0.0769	0.0176	0
UCGCCGGGUG	0.261	0.0657	0.0253	0
UCGGCGAACG	0.222	0.0652	0	0
UCGGCGAUUG	0.497	0.0480	0	0
UCGGCGGAUG	0.248	0.102	0	0
UCUACGAUUG	0.340	0.131	0.00773	0
UCUACGUCUG	0.275	0.101	0	0
UCUGCGGAAG	0.183	0.0773	0.00773	0
UCUGCGGGUG	0.183	0.0592	0.00773	0
UCUUCGGCCG	0.157	0.107	0.00773	0
UGAACGACAG	0.288	0.734	0.0915	0
UGAACGAUCG	0.209	0.137	0.00920	0
UGAACGGAGG	0.209	0.137	0.00773	0
UGACUGGAAG	0.0131	0	0	0
UGAGCGAGCG	0.196	0.107	0.00773	0
UGAGCGCCUG	0.288	0.113	0.00920	0
UGCGCGGCAG	0.105	0.572	0.0478	0
UGCUCUGCAG	0.0131	0	0	0
UGGACGAUCG	0.327	0.0836	0.00773	0
UGGGCGCUCG	0.183	0.0887	0.00773	0
UGUACGAUUG	0.431	0.0959	0	0.0197
UGUGCGGAGU	0.0131	0	0	0
UGUGCGUGCG	0.248	0.0951	0	0
UGUGCGUUCG	0.235	0.0837	0.00920	0
UGUUCGUCGG	0.431	0.107	0.00920	0
UUACCGACUG	0.301	0.138	0.00920	0
UUAGCGCCGG	0.222	0.0721	0	0
UUCCCGAUGG	0.340	0.118	0.0169	0
UUCCCGUUCG	0.183	0.0601	0.00920	0
UUCUGGCUAG	0.0131	0	0	0
UUGACGACAG	0.288	0.119	0.00920	0
UUGUCGCCUG	0.261	0.130	0.0590	0
UUGUCGGCAG	0.353	0.0832	0.00773	0
UUGUCUGUGG	0.0131	0	0	0
UUUCCGCAAG	0.170	0.581	0.110	0
UUUCGGCUAG	0.0131	0	0	0
UUUGCGCCGG	0.209	0.0775	0	0

A selection of 5 entries from above:

| sequence | pool | inoculated region | leaf margin | systemic leaves |
|---|---|---|---|---|
| UAAACGCGAG | 0.196 | 0.0833 | 0.568 | 0.0322 |
| UGUUCGUCGG | 0.431 | 0.107 | 0.00920 | 0 |
| UAGCCGCGGG | 0.235 | 0.114 | 0.0699 | 0 |
| UAGUCGAGCG | 0.196 | 0.114 | 0.0155 | 0 |
| UCUUCGGCCG | 0.157 | 0.107 | 0.00773 | 0 |

Source: Wu et al. 2024 (doi:10.1371/journal.ppat.1012142), supplementary data.